Experiment [1] has as its target SARS-CoV-2 spike protein on infectious SARS-CoV-2 virus, clinical isolate USA/WA/1/2020 (SARS-CoV-2, UniProt P0DTC2 14-1273). The experiment in a line: cell-based or functional assay.
Experiment [2] concerns the target T1, SARS-CoV-2 spike (S) protein, full length, wild type (SARS-CoV-2, UniProt P0DTC2 14-1208). The experiment in a line: multiplexed bead assay, flow cytometry.
Experiment [3] concerns the target T1, SARS-CoV-2 spike (S) protein, full …. The experiment in a line: multiplexed bead assay, flow cytometry. This is another data set of the same source.
For experiment [4] the target is unchanged. The experiment in a line: multiplexed bead assay, flow cytometry. This is another data set of the same source.

Like-named read-outs stand apart in the source and are kept apart here. Where only a bound is given, the exact number is not on record here.

Results on 18 molecules are retold here after US20210292393A1 (published 2021).

B1: mAb 414 (antibody, V domains shown)
VH: QVQLVQSGAEVKKPGASVKVSCKASGYTFTSYYMHWVRQAPGQGLEWMGIINPSGGSTSYAQKFQGRVTMTRDTSTSTVYMELSSLRSEDTAVYYCARDPPGRDFWSGYYFGAPDYYYYYGMDVWGQGTTVTVSS
VL: DIQMTQSPSSLSASVGDRVTITCRASQGISNYLAWFQQKPGKAPKSLIYAASSLQSGVPSKFSGSGSGTDFTLTISSLQPEDFATYYCQQYNSYPYTFGQGTKLEIKR
On to B1, for which, in experiment [1], the “Lab 1 live virus IC50” value was above 20 µg/mL and the “Lab3 live virus IC50” value was above 100 µg/mL.

B2: mAb 462 (antibody, V domains shown)
VH: QVQLVESGGGVVQPGRSLRLSCAASGFTFSSYGMHWVRQAPGKGLEWVAVIWYDGNNKYYADSVKGRFTISRDNSKNTLYLQMNSLRAEDTAVYYCAKDPTWFGELPSYYYYGMDVWGQGTTVTVSS
VL: not shown
As to B2, in experiment [1], the “Lab 1 live virus IC50” value was found to be 10 µg/mL and the “Lab3 live virus IC50” value is above 100 µg/mL.

B3: anti-SARS-CoV-2 antibody 458 (antibody, V domains shown)
VH: QVQLVESGGGVVQPGRSLRLSCAASEFTFATYAMHWVRQAPGKGLEWVALISQDGSNKHYADSVKGRFTISRDNSKNTLYLQMNSLRAEGTAIYYCARESLEAAGPPFDYWGQGTLVTVSS
VL: SYELTQPPSVSVSPGQTATIICSGDKLGEKYASWYQQKPGQSPALVIYQDRKRPSGIPERFSGSNSGNTATLTISGTQAMDEADYYCQAWDSSNSVVFGGGTKLTVP
With B3, the results for the “median fluorescence fold over isotype” value in experiment [2], in experiment [3] and in experiment [4] were 319 fold over isotype, 56.5 fold over isotype and 219 fold over isotype, respectively.

B4: anti-SARS-CoV-2 antibody 482 (antibody, V domains shown)
VH: EVQLVESGGGLVQPGGSLRLSCAASGFTFSSYWMTWVRQAPGKGLEWVANIKQDGSEKYYVDSVKGRFTISRDNAKNSLYLQMNSLRAEDTAVYYCARGVGSWYLGFDYWGQGTLVTVSS
VL: NFMLTQPHSVSESPGKTVTISCTGSSGSIASNYVQWYQQRPGSAPTTVIYEDNQRPSGVPDRFSGSIDSSSNSASLTISGLKTEDEADYYCQSYDGSSYVFGTGTKVTVL
As for B4, the “median fluorescence fold over isotype” value in experiment [2] was 587 fold over isotype; in experiment [3], 369 fold over isotype; in experiment [4], 872 fold over isotype.

B5: mAb 506 (antibody, V domains shown)
VH: QITLKESGPTLVKPTQTLTLTCTFSGFSLSTSGVGVGWIRQPPGKALEWLALIYWDDDKRYSPSLKSRLTITKDTSKNQVVLTMTNMDPVDTATYYCAHHSLSSIFDYWGQGTLVTVSS
VL: QSALTQPASVSGSPGQSITISCTGTSSDVGDYNYVSWYQQHPGKAPKLMIYEVSNRPSGVSNRFSGSKSGNTASLTISGLQAEDEADYYCSSYTSSSTVFGGGTKLTVLG
For B5, in experiment [1], the “Lab 1 live virus IC50” value was determined as 1.25 µg/mL and the “Lab3 live virus IC50” value stood at 2 µg/mL.

B6: mAb 553 (antibody, V domains shown)
VH: QVQLVQSGAEVKKPGASVKVSCKASGYTFTSYGISWVRQAPGQGLEWMGWISAYNGNTNYAQKLQGRVTMTTDTSTSTAYMELRSLRSDDTAVYYCARDRGYAATFGVFDYWGQGTLVTVSS
VL: not shown
For B6, in experiment [1], the “Lab 1 live virus IC50” value was 20 µg/mL and the “Lab3 live virus IC50” value is above 100 µg/mL.

B7: anti-SARS-CoV-2 antibody 465 (antibody, V domains shown)
VH: QITLKESGPTLVKPTQTLTLTCTFSGFSLSTSGVGVGWIRQPPGKALEWLALIYWDDDKHYSPSLKSRLTITKDTSKNQVVLTMTNMDPVDTATYYCAHMYYDILSGYYYGMDVWGQGTTVTVSS
VL: QSVLTQPPSASGTPGQRVTISCSGSSSNIGSNYVYWYQQLPGTAPKLLIYRNNQRPSGVPDRFSGSKSGTSASLAISGLRSEDEADYYCAAWDDSLSGRWVFGGGTKLTVL
As for B7, the “median fluorescence fold over isotype” value in experiment [2] was found to be 171 fold over isotype; in experiment [3], 359 fold over isotype; in experiment [4], 1160 fold over isotype.

B8: anti-SARS-CoV-2 antibody 467 (antibody, V domains shown)
VH: QVQLVQSGAEVKKPGASVKVSCKASGYTFISYGISWVRQAPGQGLEWMGWISAYNGNTNYAQKLQGRVTMTTDTSTSTAYMELRSLRSDDTAVYYCARGLWPGYYYGSGSYSAFHIWGQGTMVTVSS
VL: QSALTQPPSASGSPGQSVSISCTGTSSDVGGYNYVSWYQQHPGKAPKLMIYEVSKRPSGVPDRFSGSKSGNTASLTVSGLQAEDEADYYCSSYAGSNKVFGGGTKLTVL
In the case of B8, the “median fluorescence fold over isotype” value in experiment [2] worked out at 378 fold over isotype; in experiment [3] it was 215 fold over isotype; in experiment [4] it was 724 fold over isotype.

B9: anti-SARS-CoV-2 antibody 455 (antibody, V domains shown)
VH: QVQLVQSGAEVKKPGSSVKVSCKASGGTFSSYAISWVRQAPGQGLEWMGRIIPILGIANYAQKFQGRVTITADKSTSTAYMELSSLRSEDTAVYYCARDSIVVPAAIISGYYYYGMDVWGQGTTVTVSS
VL: QSVLTQPPSVSAAPGQKVTISCSGSSSNIGNNYVSWYQQLPGTAPKLLIYDNNKRPSGIPDRFSGSKSGTSATLGITGLQTGDEADYYCGTWDSSLSAGRVFGGGTKLTVL
Take B9: the “median fluorescence fold over isotype” value was determined as 333 fold over isotype in experiment [2], 175 fold over isotype in experiment [3] and 534 fold over isotype in experiment [4].

B10: mAb 297 (antibody, V domains shown)
VH: QVQLVESGGGVVQPGRSLRLSCAASGFTFSSYAMHWVRQAPGKGLEWVAVISYDGSNKYYADSVKGRFTISRDNSKNTLYLQMNSLRAEDTAVYYCARSFRGGYYYGMDVWGQGTTVTVSS
VL: DIQLTQSPSFLSASVGDRVTITCRASQGISSYLAWYQQKPGKAPKLLIYAASTLQSGVPSRFSGSGSGTEFTLTISSLQPEDFATYYCQQLNSYPLFTFGPGTKVDIK
Consider B10, for which, in experiment [1], the “Lab 1 live virus IC50” value stood at 1.25 µg/mL and the “Lab3 live virus IC50” value amounted to 9.9 µg/mL.

B11: mAb 562 (antibody, V domains shown)
VH: QVQLVESGGGVVQPGRSLRLSCAASGFTFSSYAMHWVRQAPGKGLEWVAVISYDGSNKYYADSVKGRFTISRDNSKNTLYLQMNSLRAEDTAVYYCARASSGGYQGPFDPWGQGTLVTVSS
VL: QSALTQPASVSGSPGQSITISCTGTSSDVGGYNYVSWYQQHPGKAPKLMIYDVSNRPSGVSNRFSGSKSGNTASLTISGLQAEDEADYYCSSYTSSSTLLYVFGTGTKVTVLG
Take B11: in experiment [1], the “Lab 1 live virus IC50” value is above 40 µg/mL and the “Lab3 live virus IC50” value is above 100 µg/mL.

B12: mAb 309 (antibody, V domains shown)
VH: QVQLVESGGGVVQPGRSLRLSCAASGFTFSSYAMHWVRQAPGKGLEWVAVISYDGSNKYYADSVKGRFTISRDNSKNTLYLQMNSLRAEDTAVYYCARPYSGSYQSYFDYWGQGTLVTVSS
VL: not shown
As for B12, in experiment [1], the “Lab 1 live virus IC50” value is above 20 µg/mL and the “Lab3 live virus IC50” value is above 100 µg/mL.

B13: anti-SARS-CoV-2 antibody 468 (antibody, V domains shown)
VH: QVQLVESGGGVVQPGRSLRLSCAASGFTFSIYAMHWVRQAPGKGLEWVAVISYDGSNKYYADSVKGRFTISRDNSKNTLYLQMNSLRAEDTAVYYCAGSLPAGSYYYYYGMDVWGQGTTVTVSS
VL: SYELTQPPSVSVSPGQTARITCSGDALPKQYAYWYQQKPGQAPVLVIYKDSERPSGIPERFSGSSSGTTVTLTISGVQAEDEADYYCQSADNSGTYVLFGGGTKLTVL
Regarding B13, the “median fluorescence fold over isotype” value in experiment [2] turned out to be 818 fold over isotype; in experiment [3], 1150 fold over isotype; in experiment [4] it was 1890 fold over isotype.

B14: mAb 494 (antibody, V domains shown)
VH: EVQLVESGGGLVQPGGSLRLSCAASGFTVSSNYMSWVRQAPGKGLEWVSVIYSGGSTFYADSVKGRFTISRDNSKNTLYLQMNSLRAEDTAVYYCARDSGDQLLDYWGQGTLVTVSS
VL: DIQLTQSPSFLSASVGDRVTITCRASQGISSYLAWYQQKPGKAPKLLIYAASTLQSGVPSRFSGSGSGTEFTLTISSLQPEDFATYYCQQLNSYPPFTFGPGTKVDIKR
For B14, in experiment [1], the “Lab 1 live virus IC50” value is 2.5 µg/mL and the “Lab3 live virus IC50” value is 23.6 µg/mL.

B15: anti-SARS-CoV-2 antibody 469 (antibody, V domains shown)
VH: QVQLVESGGGVVQPGRSLRLSCAASGFTFSSYGMHWVRQAPGKGLEWVAVIWYDGSNKYYADSVKGRFTISRDNSKNTLYLQMNSLRAEDTAVYYCARDLLSVGWSFDYWGQGTLVTVSS
VL: not shown
As for B15, the results for the “median fluorescence fold over isotype” value in experiment [2], in experiment [3] and in experiment [4] were 241 fold over isotype, 125 fold over isotype and 730 fold over isotype, respectively.

B16: anti-SARS-CoV-2 antibody 493 (antibody, V domains shown)
VH: EVQLVESGGGLIQPGRSLRLSCAASGFTVSITYMSWVRQAPGKGLEWVSLIYSGGSSYYADSVKGRFTISRDNSKNTLYLQMNSLRAEDTAVYYCATTMVRGVIISYYYGMDVWGQGTTVTVSS
VL: QSALTQPASVSGSPGQSITISCTGTSSDVGGYNYVSWYQQHPGKAPKLMIYEVSNRPSGVSNRFSGSKSGNTASLTISGLQAEDEADYYCSSYTSSSTLVFGGGTKLTVL
For the molecule B16, the “median fluorescence fold over isotype” value in experiment [2] worked out at 335 fold over isotype; in experiment [3], 381 fold over isotype; in experiment [4], 1010 fold over isotype.

B17: anti-SARS-CoV-2 antibody 472 (antibody, V domains shown)
VH: EVQLVESGGGLIQPGGSLRLSCAASGFTVSSNYMSWVRQAPGKGLEWVSVIYSGGTTHYADSVKGRFTISRDNSKNTLYLQMNSLRAEDTAVYYCANYGMDVWGQGTTVTVSS
VL: SYELTQPSSVSVSPGQTARITCSGDVLAKKYARWFQQKPGQAPVLVIYKDSERPSGIPERFSGSSSGTTVTLTISGAQVEDEADYYCYSAADKVFGGGTKLTVL
As for B17, the figures for the “median fluorescence fold over isotype” value in experiment [2], in experiment [3] and in experiment [4] were 57.4 fold over isotype, 22.3 fold over isotype and 98.3 fold over isotype, respectively.

B18: anti-SARS-CoV-2 antibody 461 (antibody, V domains shown)
VH: EVQLVESGGGLVKPGGSLRLSCAASGFTFSSYSMNWVRQAPGKGLEWVSSISSSSSYIYYADSVKGRFTISRDNAKNSLYLQMNSLRAEDTAVYYCASNPAAGQEAYYYYGMDVWGQGTTVTVSS
VL: not shown
For the molecule B18, the figures for the “median fluorescence fold over isotype” value in experiment [2], in experiment [3] and in experiment [4] were 763 fold over isotype, 1010 fold over isotype and 1760 fold over isotype, respectively.
